## Kdimer by position in the HIV-1 leader RNA

Values reported by Ye et al. 2022 (doi:10.1038/s41594-022-00746-2).

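Mutant RNA libraries with 1G, 2G or 3G starts, with or without cap, were folded at 37 °C for 30 min. Monomer and dimer bands were cut from native gels after folding in high salt (300 mM KCl, 5 mM MgCl2) or low salt (40 mM KCl, 0.1 mM MgCl2). Kdimer compares mutation frequencies in monomer and dimer, corrected for sequencing errors.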

The 5' region of HIV-1 NL4-3 RNA (positions 1-437):
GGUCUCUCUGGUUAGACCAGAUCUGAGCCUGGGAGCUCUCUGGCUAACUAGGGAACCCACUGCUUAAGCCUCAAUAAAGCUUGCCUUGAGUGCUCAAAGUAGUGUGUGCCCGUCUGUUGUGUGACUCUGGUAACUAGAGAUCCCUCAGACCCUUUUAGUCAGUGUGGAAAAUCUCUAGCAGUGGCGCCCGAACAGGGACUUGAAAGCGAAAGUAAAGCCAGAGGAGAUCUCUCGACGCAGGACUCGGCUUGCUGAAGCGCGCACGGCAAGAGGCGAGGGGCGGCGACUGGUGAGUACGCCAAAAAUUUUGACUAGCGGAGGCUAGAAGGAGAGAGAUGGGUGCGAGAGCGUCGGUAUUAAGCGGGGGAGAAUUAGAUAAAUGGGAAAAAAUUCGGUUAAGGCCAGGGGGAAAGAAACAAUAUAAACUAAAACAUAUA

Scale: median log2 Kdimer over the changes at a position; positive = changes inhibit dimerization, negative = changes enhance it.
One numbering serves 1G, 2G and 3G.
A position is written with its base.

With U117 the assay gave 2G capped low-salt -0.19; 2G uncapped low-salt -0.16. With U118 the assay gave 2G capped low-salt -0.06; 2G uncapped low-salt -0.15. With G119 the assay gave 2G capped low-salt -0.30; 2G uncapped low-salt -0.45. U120 read 2G capped low-salt 0.26; 2G uncapped low-salt 0.09. G121 read 2G capped low-salt -0.60; 2G uncapped low-salt -0.46. With U122 the assay gave 2G capped low-salt 0.43; 2G uncapped low-salt 0.76. G123 gave 2G capped low-salt 0.17; 2G uncapped low-salt 0.18.

For A124 the result was 2G capped low-salt 0.21; 2G uncapped low-salt 0.26. For C125 the result was 2G capped low-salt 0.41; 2G uncapped low-salt 0.47. U126 read 2G capped low-salt 0.05; 2G uncapped low-salt 0.26. With C127 the assay gave 2G capped low-salt 0.38; 2G uncapped low-salt 0.54. U128 read 2G capped low-salt 0.50; 2G uncapped low-salt 0.64. With G129 the assay gave 2G capped low-salt 0.87; 2G uncapped low-salt 0.83. For G130 the result was 2G capped low-salt 0.40; 2G uncapped low-salt 0.41.

U131 read 2G capped low-salt 0.57; 2G uncapped low-salt 0.36. For A132 the result was 2G capped low-salt 0.01; 2G uncapped low-salt -0.01. A133 gave 2G capped low-salt 0.28; 2G uncapped low-salt 0.26. C134 gave 2G capped low-salt -0.22; 2G uncapped low-salt -0.16. U135 read 2G capped low-salt -0.11; 2G uncapped low-salt -0.04. With A136 the assay gave 2G capped low-salt -0.16; 2G uncapped low-salt -0.13. G137 gave 2G capped low-salt 0.67; 2G uncapped low-salt 0.76.

For A138 the result was 2G capped low-salt 0.50; 2G uncapped low-salt 0.57. G139 read 2G capped low-salt 0.72; 2G uncapped low-salt 0.64. A140 read 2G capped low-salt 0.20; 2G uncapped low-salt 0.31. For U141 the result was 2G capped low-salt 0.19; 2G uncapped low-salt 0.59. For C142 the result was 2G capped low-salt 0.16; 2G uncapped low-salt 0.14. For C143 the result was 2G capped low-salt 0.19; 2G uncapped low-salt 0.37. For C144 the result was 2G capped low-salt 0.18; 2G uncapped low-salt 0.09.

For U145 the result was 2G capped low-salt 0.00; 2G uncapped low-salt 0.23. C146 gave 2G capped low-salt 0.04; 2G uncapped low-salt 0.10. With A147 the assay gave 2G capped low-salt -0.07; 2G uncapped low-salt -0.11. For G148 the result was 2G capped low-salt 0.03; 2G uncapped low-salt 0.27. With A149 the assay gave 2G capped low-salt -0.05; 2G uncapped low-salt -0.07. For C150 the result was 2G capped low-salt 0.61; 2G uncapped low-salt 0.52.

Extract of 2 entries:

position	2G capped low-salt	2G uncapped low-salt
A133	0.28	0.26
A124	0.21	0.26